Anti-infective test results gathered from many reports (values: NIAID ChemDB through PubChem).

Common to all: whole-cell or culture tests

Inhibition is in % at the dose shown (toxicity tests: loss of growth or viability). Rows are shuffled and stem from different studies. An empty or dashed field is not shown. Zone: diameter of growth inhibition. A number after MIC or MFC names an inhibition level or a share of isolates.

SMILES,read-out,strain or isolate,tested at,method,agent,result
Cn1c(=O)ccc2c3sc(N4CCN(c5cccc(Cl)c5Cl)CC4)nc3ccc21,MIC100,MTCC 282,,,Aspergillus niger,62.5 µg/mL
O=C1S/C(=C\c2ccc(F)cc2F)C(=O)N1CC(O)(Cn1nccn1)c1ccc(F)cc1F,MIC,,,,Aspergillus glaucus,>100 µg/mL
Cc1cccc(/C=N/NC(N)=S)n1,MIC,MCT 00334,,broth dilution,Aspergillus parasiticus,500 µg/mL
Cn1cccc1/C=C1\SC(=O)N(CC(O)(Cn2nccn2)c2ccc(F)cc2F)C1=O,MIC,,,,Aspergillus glaucus,>100 µg/mL
FC(F)(F)c1nc(OCc2nc(-c3ccc(Br)cc3)n[nH]2)c2ccccc2n1,MIC100,MTCC 277,,,Aspergillus flavus,25 µg/mL
O=C(/C=C/c1ccc(OCCCCCCCCCCOc2ccc(/C=C/C(=O)c3ccccc3)cc2)cc1)c1ccccc1,MIC,,,broth dilution,Aspergillus janus,16 µg/mL
C[C@H]1[C@H](O)[C@@H](C)/C=C/C=C/C=C/C=C/C=C/C=C/C=C/[C@H](O[C@@H]2O[C@H](C)[C@@H](O)[C@H](N)[C@@H]2O)C[C@@H]2O[C@](O)(C[C@@H](O)C[C@@H](O)CC[C@H](O)[C@@H](O)C[C@@H](O)CC(=O)O[C@H]1C)C[C@H](O)[C@H]2C(=O)O,MIC90,,,broth dilution,Aspergillus nidulans,14 µg/mL
CCCCNC(=S)N/N=C/c1c[nH]c2ccccc12,MIC,CMT 0334,,broth dilution,Aspergillus parasiticus,500 µg/mL
CCN1CCN(c2nc(Nc3ccc(C#N)c(C(F)(F)F)c3)nc(Oc3cccc4cccnc34)n2)CC1,zone,MTCC 1323,100 µg/disc,agar diffusion / agar,Aspergillus clavatus,21 mm
CC1=C2C3=C4[C@@](C)(C(=O)[C@]2(O)OC1=O)[C@@H]1C[C@@H]1[C@@]4(O)C[C@@H]1[C@]32OC(=O)C3=C2C[C@H]2[C@](O)(COC(=O)/C(C)=C/COC(=O)CCC(=O)OC3)[C@H]3C[C@H]3[C@]12C,MIC,ATCC 293,,broth dilution,Aspergillus spp.,128 µg/mL
Cc1ccc(N2NOC(=O)C2S(=O)(=O)Nc2ccc(-n3c(-c4ccccc4[N+](=O)[O-])nc4ccccc4c3=O)cc2)cc1,zone,MTCC323,250 µg/mL,agar diffusion,Aspergillus clavatus,20 mm
CSC1=NC(c2cccc([N+](=O)[O-])c2)C(C#N)=C(N)N1,zone,MTCC 282,100 µg/mL,agar diffusion,Aspergillus niger,16 mm
C[C@@H](c1nc(-c2ccc(C#N)cc2)cs1)[C@](O)(Cn1cncn1)c1cc(F)ccc1F,MIC50,,,broth dilution,Aspergillus lentulus,0.25 µg/mL
O=C(CNC(=O)c1ccncc1)NN1C(=O)CSC1c1ccccc1Cl,zone,,100 µg/mL,agar diffusion,Aspergillus flavus,22 mm
CC1=C2C3=C4[C@](C)([C@@H]5C[C@@H]5[C@@]4(O)C[C@@H]4[C@]35OC(=O)C3=C5C[C@H]5[C@](O)(COC(=O)/C(C)=C/COC(=O)CCC(=O)OC3)[C@H]3C[C@H]3[C@]45C)[C@H](O)[C@]2(O)OC1=O,MIC,ATCC 293,,broth dilution,Aspergillus spp.,>256 µg/mL
Cc1cc(C=Nc2ccc(N=Cc3cc(C)cc(/C=N/Nc4nc5ccccc5s4)c3O)cc2)c(O)c(/C=C/Nc2nc3ccccc3s2)c1,inhibition,,5 µg/mL,turbidity,Aspergillus niger,0%
COC(=O)/C(C)=C1\C(=O)[C@H](O)[C@]2(C)C3=C(C[C@@H]4[C@]5(OC(=O)C6=C5C[C@H]5[C@](O)(COC(=O)/C(C)=C/COC(=O)CCC(=O)OC6)[C@H]6C[C@H]6[C@]45C)[C@H]31)[C@H]1C[C@H]12,MIC,ATCC 293,,broth dilution,Aspergillus spp.,8 µg/mL
C=C1SCN(NC(=O)CNC(=O)c2ccncc2)C1=O,zone,,100 µg/mL,agar diffusion,Aspergillus flavus,14 mm
O=C(/C=C/c1ccc(OCCCOc2ccc(/C=C/C(=O)c3ccccc3)cc2)cc1)c1ccccc1,MIC,,,broth dilution,Aspergillus janus,8 µg/mL
Cc1ccc(S(=O)(=O)CNc2oc3[nH]c(=O)[nH]c(=O)c3c2-c2ccc(O)cc2)cc1,zone,,100 µg/mL,agar diffusion / agar,Aspergillus oryzae,25 mm
COc1ccc(C(=O)Cn2ccnc2)cc1,inhibition,,80 µg/mL,broth dilution,Aspergillus fumigatus,46%
CC1CC(C)CN(c2nc3ccc4oc(=O)ccc4c3s2)C1,MIC100,MTCC 282,,,Aspergillus niger,62.5 µg/mL
COc1ccc(/C=C2\SC(=O)N(CC(O)(Cn3nccn3)c3ccc(F)cc3F)C2=O)cc1,MIC,,,,Aspergillus glaucus,>100 µg/mL
COc1ccc(C(=O)Cn2cncn2)cc1,inhibition,,100 µg/mL,broth dilution,Aspergillus fumigatus,64%
Cn1nnnc1SCC(=O)N/N=c1/scc(-c2ccc(Br)cc2)n1-c1ccccc1,MIC,NRRL 465,,broth dilution,Aspergillus parasiticus,19.3 µg/mL
c1ccc(-c2ccc(C(c3ccccc3)n3ccnc3)cc2)cc1,MFC,ATCC 11730,,broth dilution,Aspergillus versicolor,200 µg/mL
CN1CCN(c2nc3ccc4oc(=O)ccc4c3s2)CC1,MIC100,MTCC 282,,,Aspergillus niger,200 µg/mL
O=C(CNC(=O)c1ccncc1)NN1CSCC1=O,zone,,50 µg/mL,agar diffusion,Aspergillus flavus,13 mm
CCC(C)n1ncn(-c2ccc(N3CCN(c4ccc(OC[C@H]5CO[C@](Cn6cncn6)(c6ccc(Cl)cc6Cl)O5)cc4)CC3)cc2)c1=O,inhibition,AF293,64 µg/mL,broth dilution,Aspergillus fumigatus,99.99%
O=C(Cc1cc(=O)oc2cc(O)ccc12)N1NC(=Nc2ccccc2)SC=C1c1cc2ccccc2oc1=O,MIC50,,,broth dilution,Aspergillus ochraceus,0.01 µg/mL
COc1cc(/C=C/C(C)=O)ccc1O,zone,,200 µg/disc,agar diffusion,Aspergillus ochraceus,30 mm
O=C1S/C(=C\c2ccco2)C(=O)N1CC(O)(Cn1nccn1)c1ccc(F)cc1F,MIC,,,,Aspergillus glaucus,>100 µg/mL
N#Cc1ccc(Nc2nc(Oc3cccc4cccnc34)nc(N3CCN(c4ccccn4)CC3)n2)cc1C(F)(F)F,zone,MTCC 1323,100 µg/disc,agar diffusion / agar,Aspergillus clavatus,22 mm
CCN=C1NN(C(=O)Cc2cc(=O)oc3cc(O)ccc23)C(c2c(O)c3ccccc3oc2=O)=CS1,MIC50,,,broth dilution,Aspergillus ochraceus,0.1 µg/mL
Cc1ccc(S(=O)(=O)CNc2oc3[nH]c(=O)[nH]c(=O)c3c2-c2ccc(Cl)cc2)cc1,zone,,100 µg/mL,agar diffusion / agar,Aspergillus oryzae,20 mm
O=C(CNC(=O)c1ccncc1)NN1C(=O)CSC1c1ccc([N+](=O)[O-])cc1,zone,,50 µg/mL,agar diffusion,Aspergillus flavus,23 mm
Cc1nc(OCc2nc(-c3ccc(Br)cc3)n[nH]2)c2ccccc2n1,MIC100,MTCC 277,,,Aspergillus flavus,25 µg/mL
c1ccc(C2=NN(c3ccccc3)C(c3ccc(OCCCCCCCCCCCCOc4ccc(C5CC(c6ccccc6)=NN5c5ccccc5)cc4)cc3)C2)cc1,MIC,,,broth dilution,Aspergillus janus,16 µg/mL
C[C@H]1[C@H](O)[C@@H](C)/C=C/C=C/C=C/C=C/C=C/C=C/C=C/[C@H](O[C@@H]2O[C@H](C)[C@@H](O)[C@H](N)[C@@H]2O)C[C@@H]2O[C@](O)(C[C@@H](O)C[C@@H](O)CC[C@H](O)[C@@H](O)C[C@@H](O)CC(=O)O[C@H]1C)C[C@H](O)[C@H]2C(=O)O,MIC,96919,,broth dilution,Aspergillus ochraceus,0.25 µg/mL
NC(=S)NN=Cc1cccs1,MIC,MCT 00435,,broth dilution,Aspergillus ochraceus,125 µg/mL
FC(F)(F)c1nc(OCc2nc(-c3cccs3)n[nH]2)c2ccccc2n1,MIC100,MTCC 277,,,Aspergillus flavus,25 µg/mL
CS(=O)(=O)c1nc(N)c(C#N)c(-c2ccccc2[N+](=O)[O-])n1,zone,MTCC 282,25 µg/mL,agar diffusion,Aspergillus niger,19 mm
CCN=C1NN(C(=O)Cc2cc(=O)oc3cc(O)ccc23)C(c2cc3ccccc3oc2=O)=CS1,MIC50,,,broth dilution,Aspergillus ochraceus,0.1 µg/mL
CCOc1ccc2nc(NS(=O)(=O)C3C(=O)ONN3c3ccc(C)cc3)sc2c1,zone,MTCC323,250 µg/mL,agar diffusion,Aspergillus clavatus,23 mm
CSC1=NC(c2ccccc2O)C(C#N)=C(N)N1,zone,MTCC 282,25 µg/mL,agar diffusion,Aspergillus niger,14 mm
CN=C1NN(C(=O)Cc2cc(=O)oc3cc(O)ccc23)C(c2cc3ccccc3oc2=O)=CS1,MIC50,,,broth dilution,Aspergillus ochraceus,0.1 µg/mL
O=C(Cn1ccnc1)c1ccc(F)cc1F,inhibition,,100 µg/mL,broth dilution,Aspergillus fumigatus,78%
O=C1S/C(=C\c2cccs2)C(=O)N1CC(O)(Cn1nccn1)c1ccc(F)cc1F,MIC,,,,Aspergillus glaucus,>100 µg/mL
c1ccc(C2=NN(c3ccccc3)C(c3ccc(OCCCCCCCCCCOc4ccc(C5CC(c6ccccc6)=NN5c5ccccc5)cc4)cc3)C2)cc1,MIC,,,broth dilution,Aspergillus janus,8 µg/mL
O=[N+]([O-])c1ccc(NC(=S)N/N=C/c2c[nH]c3ccccc23)cc1,MIC,CMT 0334,,broth dilution,Aspergillus parasiticus,500 µg/mL
Cc1coc2c1C(=O)[C@@H]1[C@](C)([C@H](O)CC[C@@]1(C)O)[C@@H]2O,MIC,ATCC 293,,broth dilution,Aspergillus spp.,>256 µg/mL
O=c1ccc2c(ccc3nc(N4CCN(c5cccc(C(F)(F)F)c5)CC4)sc32)o1,MIC100,MTCC 282,,,Aspergillus niger,100 µg/mL
CC(C)NC(=S)N/N=C/c1c[nH]c2ccccc12,MIC,CMT 0334,,broth dilution,Aspergillus parasiticus,500 µg/mL
Cc1ccc(N2NOC(=O)C2S(=O)(=O)Nc2ccc(-n3c(-c4ccccc4Cl)nc4ccccc4c3=O)cc2)cc1,zone,MTCC323,250 µg/mL,agar diffusion,Aspergillus clavatus,20 mm
Cc1nc(OCc2nc(-c3ccc(Cl)cc3)n[nH]2)c2ccccc2n1,MIC100,MTCC 277,,,Aspergillus flavus,50 µg/mL
CCCCCCNC(=S)N/N=C/c1ccnc2ccccc12,MIC,CMT 0334,,broth dilution,Aspergillus parasiticus,500 µg/mL
C/C(=N\NC(=S)Nc1cccc([N+](=O)[O-])c1)c1c(O)ccc2c(C)cc(=O)oc12,inhibition,,50 µg/mL,agar diffusion / agar,Aspergillus niger,76.53%
Cc1ccc(S(=O)(=O)CNc2oc3[nH]c(=O)[nH]c(=O)c3c2-c2ccc([N+](=O)[O-])cc2)cc1,zone,,100 µg/mL,agar diffusion / agar,Aspergillus oryzae,22 mm
O=c1oc2ccccc2cc1C1=NN/C(=N\Br)SC1,MIC50,,,broth dilution,Aspergillus ochraceus,0.01 µg/mL
N#Cc1ccc(Nc2nc(Oc3cccc4cccnc34)nc(N3CCCCC3)n2)cc1C(F)(F)F,zone,MTCC 1323,100 µg/disc,agar diffusion / agar,Aspergillus clavatus,21 mm
Cc1ccc(N2NOC(=O)C2S(=O)(=O)Nc2nc3ccc([N+](=O)[O-])cc3s2)cc1,zone,MTCC323,250 µg/mL,agar diffusion,Aspergillus clavatus,24 mm
COc1cc(-c2n[nH]c(COc3nc(C)nc4ccccc34)n2)cc(OC)c1OC,MIC100,MTCC 277,,,Aspergillus flavus,25 µg/mL
N#Cc1ccc(Nc2nc(Oc3cccc4cccnc34)nc(N3CCN(c4ncccn4)CC3)n2)cc1C(F)(F)F,zone,MTCC 1323,100 µg/disc,agar diffusion / agar,Aspergillus clavatus,24 mm
CSC1=NC(c2ccc(O)cc2)C(C#N)=C(N)N1,zone,MTCC 282,25 µg/mL,agar diffusion,Aspergillus niger,14 mm
Cc1nc2ccccc2n(CC(=O)NN2C(=O)CSC2c2ccccc2Cl)c1=O,zone,,50 µg/mL,,Aspergillus nidulans,7 mm
CCCCCCCCOC(=O)[C@]1(O)C[C@@H](O)[C@@H](O)[C@H](OC(=O)/C=C/c2ccc(O)c(O)c2)C1,MIC80,SLV 549,,absorbance,Aspergillus nomius,1250 µg/mL
O=c1cc(CO)occ1O,MIC99,UAB698,,agar,Aspergillus terreus,>12800 µM
O=C(CNC(=O)c1ccncc1)NN1C(=O)/C(=C/c2cccc(Br)c2)SC1c1cccc(Br)c1,zone,,100 µg/mL,agar diffusion,Aspergillus flavus,16.6 mm
CC(=O)N1CCN(c2ccc(OC[C@H]3CO[C@](Cn4ccnc4)(c4ccc(Cl)cc4Cl)O3)cc2)CC1,MIC50,Species complex,,,Aspergillus spp.,1 µg/mL
c1ccc(C2=NN(c3ccccc3)C(c3ccc(OCCOc4ccc(C5CC(c6ccccc6)=NN5c5ccccc5)cc4)cc3)C2)cc1,MIC,,,broth dilution,Aspergillus janus,16 µg/mL